Measurements reported in PMC7765321, “Novel Isoniazid-Carborane Hybrids Active In Vitro against Mycobacterium tuberculosis” (Pharmaceuticals, 2020).

System: Mtb H37Rv strain
Format: cell-based
Details: Selectivity Index = CC50/MIC99 Mtb

Point of comparison: “N′-((1,7-dicarba-closo-dodecaboran-1-yl)ethylidene)isonicotinohydrazide [Compound 21]”, “SI Mtb” value 95. Against it:
- N′-((1,2-dicarba-closo-dodecaboran-1-yl)ethyl)isonicotinohydrazide [Compound 23] — lower, 18
- N′-((1,2-dicarba-closo-dodecaboran-1-yl)ethylidene)isonicotinohydrazide [Compound 20] — lower, 51
- N′-((1,7-dicarba-closo-dodecaboran-1-yl)ethyl)isonicotinohydrazide [Compound 24] — lower, 32
- N′-((1,7-dicarba-closo-dodecaboran-1-yl)methylidene)isonicotinohydrazide [Compound 14] — lower, 38
- N′-((1,7-dicarba-closo-dodecaboran-1-yl)propanoyl)isonicotinohydrazide [Compound 9] — lower, 4
- N′-((1,12-dicarba-closo-dodecaboran-1-yl)ethylidene)isonicotinohydrazide [Compound 22] — lower, 50
- N′-((1,12-dicarba-closo-dodecaboran-1-yl)methylidene)isonicotinohydrazide [Compound 15] — lower, 18
- N′-((1,12-dicarba-closo-dodecaboran-1-yl)propanoyl)isonicotinohydrazide [Compound 10] — lower, 2
- N′-((7,8-dicarba-nido-undecaboranyl)methylidene)isonicotinohydrazide [Compound 16] — higher, 756

“N′-((1,2-dicarba-closo-dodecaboran-1-yl)propanoyl)isonicotinohydrazide [Compound 8]” was tested, and the “SI Mtb” value was <1.
